Measured values from several laboratories, pooled; numbers as filed in NIAID ChemDB.

Shared fields: target-level tests; species: HIV-1; protein: Protease

Rows are shuffled and stem from different studies. ICn is the concentration giving n% inhibition.

Cc1ccc(Cl)cc1N1CCN(Cc2cn([C@@H](Cc3ccccc3)[C@H](Cc3ccccc3)NC(=O)OCC3CCCO3)nn2)CC1 ; endpoint: IC50 ; method: fluorescence ; result: >5 µM
CC(C)[C@H](NC(=O)[C@H](C)NC(=O)OCc1ccccc1)C(=O)N[C@@H](Cc1ccccc1)[C@H](O)CN1CCC[C@H]1C(=O)NC(C)(C)C ; endpoint: Ki ; method: fluorescence ; result: 0.499 µM
CC(C)[C@H](NC(=O)c1cccnc1)C(=O)NC(Cc1ccccc1)C(O)C(O)C(Cc1ccccc1)NC(=O)[C@@H](NC(=O)c1cccnc1)C(C)C ; endpoint: IC50 ; method: fluorescence ; result: <0.005 µM
CCC(C)[C@H](NC(=O)CCCCCCCCCCCCCCC(=O)N[C@@H](CC(N)=O)C(=O)N[C@H](C(=O)O)C1CCCCC1)C(=O)N[C@@H](Cc1ccccc1)C(N)=O ; endpoint: IC50 ; method: HPLC ; result: 0.91 µM
CCC(C)[C@H](NC(=O)CCCCCCCCCCCCCCC(=O)N[C@H](C(=O)N[C@@H](CC(C)C)C(=O)N[C@@H](CC(N)=O)C(=O)N[C@@H](Cc1ccccc1)C(=O)O)C(C)O)C(=O)N[C@H](C(=O)N[C@@H](CC(C)C)C(=O)N[C@@H](Cc1c[nH]c2ccccc12)C(=O)O)C(C)O ; endpoint: IC50 ; method: fluorescence ; result: 0.8 µM
COC(=O)[C@]12CCC(C)(C)CC1C1=CCC3[C@@]4(C)CC[C@H](N)C(C)(C)C4CC[C@@]3(C)[C@]1(C)CC2 ; endpoint: IC50 ; method: HPLC ; result: >20 µM
Cc1cccc(N2CCN(Cc3cn([C@@H](Cc4ccccc4)[C@H](Cc4ccccc4)NC(=O)OC4CCCC4)nn3)CC2)c1 ; endpoint: IC50 ; method: fluorescence ; result: <5 µM
COC(=O)[C@]12CCC(C)(C)C[C@H]1C1=CC[C@@H]3[C@@]4(C)CC[C@H](OC(=O)CCCCC(=O)O)C(C)(C)[C@@H]4CC[C@@]3(C)[C@]1(C)CC2 ; endpoint: IC50 ; method: HPLC ; result: 7.5 µM
CCC(C)[C@H](NC(=O)CCCCCCCCCCCCCCC(=O)N[C@@H](CC(N)=O)C(=O)N[C@@H](CCc1ccccc1)C(=O)O)C(=O)N[C@@H](Cc1ccccc1)C(N)=O ; endpoint: IC50 ; method: HPLC ; result: 0.792 µM
CC(C)[C@H](NC(=O)OCc1ccccc1)C(=O)N[C@@H](Cc1ccccc1)[C@H](O)[C@H](Cc1ccccc1)NC(=O)[C@@H](NC(=O)OCc1ccccn1)C(C)C ; endpoint: IC50 ; method: fluorescence ; result: <0.005 µM
COc1cc(C(O)C(C)Oc2ccc([C@@H]3O[C@H](c4ccc(O)c(OC)c4)[C@@H](C)[C@@H]3C)cc2OC)ccc1O ; endpoint: IC50 ; method: substrate cleavage ; result: >125 µM
CCC(C)[C@H](NC(=O)CCCCCCCCCCCCCCC(=O)N[C@@H](CC(N)=O)C(=O)N[C@@H](Cc1ccccc1)C(=O)O)C(=O)N[C@@H](Cc1ccc(-c2ccccc2)cc1)C(N)=O ; endpoint: IC50 ; method: HPLC ; result: 0.545 µM
Cc1ccc(Cl)cc1N1CCN(Cc2cn([C@@H](Cc3ccccc3)[C@H](Cc3ccccc3)NC(=O)OC3CCC3)nn2)CC1 ; endpoint: IC50 ; method: fluorescence ; result: <5 µM
CC(C)[C@H](NC(=O)[C@H](C)NC(=O)OCc1ccccc1)C(=O)N[C@@H](Cc1ccccc1)[C@H](O)C(=O)N1CCC[C@H]1C(=O)NC(C)(C)C ; endpoint: Ki ; method: fluorescence ; result: 0.0054 µM
CC(C)[C@H](NC(=O)c1ccncc1)C(=O)N[C@@H](Cc1ccccc1)C(O)[C@H](Cc1ccccc1)NC(=O)[C@@H](NC(=O)c1ccncc1)C(C)C ; endpoint: IC50 ; method: fluorescence ; result: <0.1 µM
Cc1cn([C@H]2C[C@H](N=[N+]=[N-])[C@@H](COC(=O)CCCCC(=O)N[C@H]3CC[C@]4(C)[C@H]5CC=C6[C@@H]7CC(C)(C)CC[C@]7(C(=O)O)CC[C@@]6(C)[C@]5(C)CC[C@H]4C3(C)C)O2)c(=O)[nH]c1=O ; endpoint: IC50 ; method: HPLC ; result: 1.2 µM
O=C(N[C@@H](Cc1ccccc1)[C@H](Cc1ccccc1)n1cc(CN2CCC(O)(c3ccc(Cl)cc3)CC2)nn1)OC1CCCC1 ; endpoint: IC50 ; method: fluorescence ; result: >5 µM
CC(C)[C@H](NC(=O)[C@H](C)NC(=O)OCc1ccccc1)C(=O)N[C@@H](Cc1ccccc1)C[C@H](O)[C@H](Cc1ccccc1)NC(=O)OCc1cncs1 ; endpoint: Ki ; method: fluorescence ; result: 0.003 µM
COC(=O)[C@]12CCC(C)(C)C[C@H]1C1=CC[C@@H]3[C@@]4(C)CC[C@H](OC(=O)CCCCC(=O)OC[C@H]5O[C@@H](n6cc(C)c(=O)[nH]c6=O)C[C@@H]5N=[N+]=[N-])C(C)(C)[C@@H]4CC[C@@]3(C)[C@]1(C)CC2 ; endpoint: IC50 ; method: HPLC ; result: 4 µM
CC(C)CC[C@H](NC(=O)CCCCCCCCCCCCCCC(=O)N[C@@H](CC(N)=O)C(=O)N[C@@H](Cc1ccccc1)C(=O)O)C(=O)N[C@@H](Cc1ccccc1)C(N)=O ; endpoint: Ki ; method: HPLC ; result: 0.502 µM
CC(C)[C@H](NC(=O)[C@H](C)NC(=O)OCc1ccccc1)C(=O)NC(Cc1ccccc1)C(=O)C(=O)N1CCC[C@H]1C(=O)NC(C)(C)C ; endpoint: Ki ; method: fluorescence ; result: 0.0025 µM
CCC(C)[C@H](NC(=O)CCCCCCCCCCCCCCC(=O)N[C@@H](CC(N)=O)C(=O)N[C@@H](Cc1ccc(C(=O)c2ccccc2)cc1)C(=O)O)C(=O)N[C@@H](Cc1ccccc1)C(N)=O ; endpoint: IC50 ; method: HPLC ; result: 0.635 µM
Cc1ccc(Cl)cc1N1CCN(Cc2cn([C@@H](Cc3ccccc3)[C@H](Cc3ccccc3)NC(=O)Nc3ccc(F)cc3)nn2)CC1 ; endpoint: IC50 ; method: fluorescence ; result: >5 µM
CC(C)[C@H](NC(=O)OCc1ccccc1)C(=O)N[C@@H](CSc1ncccn1)[C@@H](O)[C@H](O)[C@H](CSc1ncccn1)NC(=O)[C@@H](NC(=O)OCc1ccccc1)C(C)C ; endpoint: IC50 ; method: fluorescence ; result: <0.1 µM
Cc1cn([C@H]2C[C@H](N=[N+]=[N-])[C@@H](COC(=O)CCCCC(=O)O/N=C3\CC[C@]4(C)[C@H]5CC=C6[C@@H]7CC(C)(C)CC[C@]7(C(=O)O)CC[C@@]6(C)[C@]5(C)CC[C@H]4C3(C)C)O2)c(=O)[nH]c1=O ; endpoint: IC50 ; method: HPLC ; result: 1.9 µM
CC(C)C[C@H](NC(=O)OCc1ccccc1)C(=O)N[C@H](C(=O)N[C@@H](Cc1ccccc1)[C@@H](O)[C@H](O)[C@H](Cc1ccccc1)NC(=O)[C@@H](NC(=O)[C@H](CC(C)C)NC(=O)OCc1ccccc1)C(C)C)C(C)C ; endpoint: Ki ; method: fluorescence ; result: 0.0014 µM
CC(C)[C@H](NC(=O)OCc1ccccn1)C(=O)N[C@@H](Cc1ccccc1)[C@H](O)[C@@H](O)[C@H](Cc1ccccc1)NC(=O)[C@@H](NC(=O)OCc1ccccn1)C(C)C ; endpoint: IC50 ; method: fluorescence ; result: <0.001 µM
Cc1ccc(Cl)cc1N1CCN(Cc2cn([C@@H](Cc3ccccc3)[C@H](Cc3ccccc3)NC(=O)OCC(C)C)nn2)CC1 ; endpoint: IC50 ; method: fluorescence ; result: <5 µM

For reference, 2 entries again:

SMILES	endpoint	method	result
CCC(C)[C@H](NC(=O)CCCCCCCCCCCCCCC(=O)N[C@@H](CC(N)=O)C(=O)N[C@@H](CCc1ccccc1)C(=O)O)C(=O)N[C@@H](Cc1ccccc1)C(N)=O	IC50	HPLC	0.792 µM
COc1cc(C(O)C(C)Oc2ccc([C@@H]3O[C@H](c4ccc(O)c(OC)c4)[C@@H](C)[C@@H]3C)cc2OC)ccc1O	IC50	substrate cleavage	>125 µM